Values from PubChem BioAssay AID504761 (Drosophila RNAi Screening Center, 2011).
The deposit covers about 22,000 reagents; this is a random part of those with a known target gene and a result. Over the whole deposit, 116 (0.52%) are marked active. 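Calls depend on retest data that are not deposited; infection was ranked per plate without normalising between plates; the unit of the infection score is not given.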 The raw values are shown without normalisation. The numbers tell different reagents against one gene apart. Further read-outs or replicates are left out here. Not stated in the record: the amount of reagent, the time to read-out.

Purpose: 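Fly genes whose silencing reduces dengue virus type 2 infection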 (primary screen)
Cells: D.Mel-2 cells from Drosophila
Reagents: long dsRNA against Drosophila genes
Conditions: infection with dengue virus type 2; dose and infection time not stated
Measurement: 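Cells stained for dengue envelope protein and imaged; percent of infected cells per well on duplicate plates, ranked by infection, with stained nuclei counted for cell number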
Scale: infection score: higher = more virus-infected cells; cell count: higher = more cells in the well
Hit rule: 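Very low infection ranking in both replicate wells (chance probability at most 0.065), then a retest showing infection dropped 1.5-fold or more at p below 0.05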
Calls: active = confirmed: knock-down lowers infection; inactive = not picked or not confirmed

predicted target	reagent no.	infection score, replicate 1	infection score, replicate 2	cell count, replicate 1	activity call
Uhg1	1	12.7	7.6	6086	inactive
CG14853	1	1.25	5.47	6585	inactive
CG14853	2	1	7.27	5601	inactive
CG9777	1	1.35	2.48	6502	inactive
PIG-U	1	2.21	14.4	6235	inactive
PIG-U	2	11.3	15.2	6134	inactive
CG7044	1	5.48	9.95	2264	inactive
CG17778	1	1.43	19.1	6436	inactive
CG13016	1	6.79	7.44	6675	inactive
Cerk	1	2.18	6.27	6890	inactive
en	1	6.71	3.28	6651	inactive
en	2	1.5	2.15	6085	inactive
Grd	1	3.16	1.82	5953	inactive
Grd	2	10.4	11.4	4638	inactive
trk	1	3.29	2.71	5949	inactive
Mpc1	1	1.03	2.45	6396	inactive
Desat2	1	12.6	16.2	5777	inactive
Desat2	2	2.82	6.82	6565	inactive
CG15140	1	8.27	3.7	6564	inactive
CG30423	1	1.82		6193	inactive
Trs31	1	35.1	17.2	6173	inactive
Klf15	1	1.19	23.6	505	inactive
btl	1	0.66	1.45	6180	inactive
yata	1	1.75	4.91	1654	inactive
CG15286	1	4.38	5.84	6490	inactive
Adss	1	23.5	13.4	6411	inactive
Adss	2	4.33	4.21	6496	inactive
hrg	1	8.17	6.06	4776	inactive
CG9588	1	0.8	4.91	6253	inactive
CG8907	1	7.72	11.8	6215	inactive
CG8907	2	14.3	3.04	5686	inactive
alka	1	7.43	9.29	6781	inactive
AnxB11	1	3.34	5.07	6624	inactive
AnxB11	2	3.84	0.43	5961	inactive
CG12091	1	6.51	4.58	5826	inactive
CG12091	2	1.71	2.84	6780	inactive
Cpr	1	1.08	4.5	6200	inactive
Cpr	2	8.15	8.1	5252	inactive
CG31883	1	6.27	6.19	6410	inactive
CG5111	1	7.49	11.5	2525	inactive
CG11865	1	8.91	4.64	3502	inactive
CG11865	2	12.4	14.3	6761	inactive
Npc1b	1	7.3	3.59	5867	inactive
Cyp4ac3	1	15.1	1.85	5653	inactive
Art9	1	2.99	1.54	6396	inactive
dpr12	1	2.92	7.6	6240	inactive
dpr12	2	4.19	8.15	6114	inactive
CG30369	1	3.88	0.5	6683	inactive
CG30369	2	7.36	8.61	6485	inactive
Ccp84Af	1	9.34	11.4	6339	inactive
Ccp84Af	2	13.1	16.8	5416	inactive
Vha13	1	8.07	2.37	5802	inactive
AGBE	1	10.8	1.56	6150	inactive
AGBE	2	13.9	24.8	6507	inactive
CG31705	1	47.4	25.4	957	inactive
CG31705	2	1.67	18.9	1320	inactive
MED10	1	1.81	2.47	5757	inactive
tobi	1	7.1	9.04	6096	inactive

Part of the list above, reformatted:
{"predicted target": "CG31883", "reagent no.": 1, "infection score, replicate 1": 6.27, "infection score, replicate 2": 6.19, "cell count, replicate 1": 6410, "activity call": "inactive"}
{"predicted target": "CG5111", "reagent no.": 1, "infection score, replicate 1": 7.49, "infection score, replicate 2": 11.5, "cell count, replicate 1": 2525, "activity call": "inactive"}
{"predicted target": "CG11865", "reagent no.": 1, "infection score, replicate 1": 8.91, "infection score, replicate 2": 4.64, "cell count, replicate 1": 3502, "activity call": "inactive"}
{"predicted target": "CG11865", "reagent no.": 2, "infection score, replicate 1": 12.4, "infection score, replicate 2": 14.3, "cell count, replicate 1": 6761, "activity call": "inactive"}
{"predicted target": "Npc1b", "reagent no.": 1, "infection score, replicate 1": 7.3, "infection score, replicate 2": 3.59, "cell count, replicate 1": 5867, "activity call": "inactive"}
{"predicted target": "Cyp4ac3", "reagent no.": 1, "infection score, replicate 1": 15.1, "infection score, replicate 2": 1.85, "cell count, replicate 1": 5653, "activity call": "inactive"}
